These are literature values, as cited in patent EP0009325A1, “Erythritol cointaining anti-caries compositions” (PFIZER INC., priority 1978, dated 1980).

The structures appear in SMILES notation.

For this data set the following is noted: at practical use levels; cited from earlier work.

As for `OC[C@@H](O)[C@@H](O)CO` [erythritol], the “sweetness relative to sucrose” value is reported as “about 60%”.
